Laboratory results reported in paper PMC3511042 (Beilstein Journal of Organic Chemistry, 2012).
Where two headings read alike, the source gives them in different places. *1 amine or outer side, *2 acyl side, *3 side chain or, on linkers, in order; H or OH if unused. Where a SMILES comes first, the peptide text is derived from it. Bridges are numbered along the chain shown (N, C = ends). Roman numbers before positions name the chains, in order. [ ]: non-standard residue; d: D form. The star is where a group is joined. ξ: configuration not given here. X3 = CN(C)c1ccc2c(-c3cc(NC(=S)*)ccc3C(=O)[O-])c3ccc(=[N+](C)C)cc-3oc2c1; X1 = CCCCCCCC/C=C\CCCCCCCC(=O)OC[C@](C)(O)C[C@H](N[*:1])C(=O)[*:2]; Trp(2-yl) = O=C([C@H](Cc1c([*:3])[nH]c2ccccc12)N[*:1])[*:2]; ξTrp(2-yl) = O=C(C(Cc1c([*:3])[nH]c2ccccc12)N[*:1])[*:2]; Leu(4R-OH,5-OH) = C[C@](O)(CO)C[C@H](N)C(=O)O; X2 = CC1(CC(N[*:1])C(=O)[*:2])SCC(CN[*:3])S1; X4 = CC(O)(CN[*:3])CC(N[*:1])C(=O)[*:2]; cisHyp = O=C(O)[C@@H]1C[C@H](O)CN1; Hyp = O=C(O)[CH]1C[CH](O)CN1; X5 = O=C(CCS[*:1])[*:2]; ξHyp = O=C(O)C1CC(O)CN1; ξT = CC(O)C(N)C(=O)O; ξC = NC(CS)C(=O)O; ξA = CC(N)C(=O)O

Experiments:
K562 cells = assay: cells; assay type: cell-based, human; conditions: read-out: IC50 values K562 cells
Jurkat cells [1] = conditions: read-out: IC50 values Jurkat cells
α-actin = α-actin (Oryctolagus cuniculus, UniProt P68135); assay type: binding, rabbit
HL-60 cells = assay: cells; assay type: cell-based, human; conditions: read-out: IC50 values HL-60 cells
Daudi cells = assay: cells; assay type: cell-based, human; conditions: read-out: IC50 values Daudi cells
cells = tested on: cells; parameters: method as in earlier work; conditions: flow cytometry ref 13; cited from earlier work
Jurkat cells [2] = assay: cells; conditions: Homo sapiens, 72 h, read-out: IC50 values Jurkat cells
[3] = as compared to phalloidin, from concentrations for 50% substitution of [3H]-demethylphalloin
[4] = cell growth inhibition, 72 h incubation, MTT

## CCCCCCCC/C=C\CCCCCCCC(=O)OC[C@](C)(O)C[C@@H]1NC(=O)[C@@H]2Cc3c([nH]c4ccccc34)SC[C@H](NC(=O)[C@@H]([C@H](C)O)NC(=O)[C@H](C)NC1=O)C(=O)N1C[C@@H](O)C[C@H]1C(=O)N[C@@H](C)C(=O)N2 [1e, (1)-oleate] (cyclo(A[dT]C[cisHyp]A[Trp(2-yl)][X1]); thioether 3-6)
K562 cells
  IC50: 2 µM
Jurkat cells [1]
  IC50: 2 µM
α-actin
  Relative affinity to α-actin: 4%
HL-60 cells
  IC50: 3 µM
Daudi cells
  IC50: 4 µM

## CC(=O)N[C@@H](CSSCCC(=O)NCC(C)(O)CC1NC(=O)C2Cc3c([nH]c4ccccc34)SCC(NC(=O)C(C(C)O)NC(=O)C(C)NC1=O)C(=O)N1CC(O)CC1C(=O)NC(C)C(=O)N2)C(=O)NCC(=O)N[C@@H](Cc1ccc(O)cc1)C(=O)NCC(=O)N[C@@H](CCCNC(=N)N)C(=O)N[C@@H](CCCCN)C(=O)N[C@@H](CCCCN)C(=O)N[C@@H](CCCNC(=N)N)C(=O)N[C@@H](CCCNC(=N)N)C(=O)N[C@@H](CCC(N)=O)C(=O)N[C@@H](CCCNC(=N)N)C(=O)N[C@@H](CCCNC(=N)N)C(=O)N[C@@H](CCCNC(=N)N)C(=O)O (some centres unmarked) [2c, (2)-Tat-peptide]
α-actin; [3]
  Relative affinity to α-actin: 3%

## CC(=O)N[C@@H](CSSCCC(=O)NCC(C)(O)CC1NC(=O)C2Cc3c([nH]c4ccccc34)SCC(NC(=O)C(C(C)O)NC(=O)C(C)NC1=O)C(=O)N1CC(O)CC1C(=O)NC(C)C(=O)N2)C(=O)NCC(=O)N[C@@H](CCCNC(=N)N)C(=O)N[C@@H](CCCNC(=N)N)C(=O)N[C@@H](CCCNC(=N)N)C(=O)N[C@@H](CCCNC(=N)N)C(=O)N[C@@H](CCCNC(=N)N)C(=O)N[C@@H](CCCNC(=N)N)C(=O)N[C@@H](CCCNC(=N)N)C(=O)N[C@@H](CCCNC(=N)N)C(=O)O (some centres unmarked) [2d, (2)-octarginine] (I: Ac-CGRRRRRRRR-OH / II: cyclo([ξTrp(2-yl)][X4][ξA][ξT][ξC][ξHyp][ξA]); linker I:1-II:2 via X5; thioether II:1-II:5)
Jurkat cells [1]; [4]
  IC50: 7 µM
α-actin; [3]
  Relative affinity to α-actin: 2%

## C[C@@H]1NC(=O)[C@H](C[C@@](C)(O)CO)NC(=O)[C@@H]2Cc3c([nH]c4ccccc34)SC[C@H](NC(=O)[C@@H]([C@H](C)O)NC1=O)C(=O)N1C[C@@H](O)C[C@H]1C(=O)N[C@@H](C)C(=O)N2 [compound 1, phalloidin, reference compound] (cyclo(A[dT]C[cisHyp]A[Trp(2-yl)][Leu(4R-OH,5-OH)]); thioether 3-6)
K562 cells; Homo sapiens, K562, 72 h
  IC50: > 1000 µM
cells
  apoptosis (annexin fluorescence distribution): indistinguishable from controls
α-actin; [3]
  Relative affinity to α-actin: 100%
HL-60 cells; Homo sapiens, HL-60, 72 h
  IC50: > 1000 µM
Jurkat cells [2]
  IC50: ~1000 µM
Daudi cells; Homo sapiens, Daudi, 72 h
  IC50: > 1000 µM

## CC1NC(=O)C(CC2(C)SCC(CNC(=S)Nc3ccc(C(=O)[O-])c(-c4c5ccc(=[N+](C)C)cc-5oc5cc(N(C)C)ccc45)c3)S2)NC(=O)C2Cc3c([nH]c4ccccc34)SCC(NC(=O)C(C(C)O)NC1=O)C(=O)N1CC(O)CC1C(=O)NC(C)C(=O)N2 (centres unmarked) [compound 3, dithiolanoaminophalloidin TRITC labeled] (cyclo([ξTrp(2-yl)][X2](X3)ATC[Hyp]A); thioether 1-5; configuration not given here)
α-actin
  Relative affinity to α-actin: 25%

## aminophalloidin [compound 2]
K562 cells; [4]
  IC50: > 1000 µM
Jurkat cells [1]; [4]
  IC50: ~1000 µM
α-actin; [3]
  Relative affinity to α-actin: 2%
HL-60 cells; [4]
  IC50: > 1000 µM
Daudi cells; [4]
  IC50: > 1000 µM
